Percent effect of library compounds

Mtb glucose medium: 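Whole-cell growth test on Mycobacterium tuberculosis, read after 3 days in glucose-containing 7H9 medium; the read-out is not stated. Concentration: 500 µM. The record gives no direction; compounds that gave an IC50 in retests scored well above the rest, so higher reads as more growth inhibition. Size under these conditions: about 18,000 compounds, about 1,400 of them at 50% or above in at least one test.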
Mtb cholesterol medium: 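Growth of Mycobacterium tuberculosis over 4 days (cholesterol / DPPC medium with tyloxapol); the read-out is not stated. Tested at 500 µM. Higher reads as more growth inhibition (inferred: compounds with an IC50 in retests scored well above the rest). Size under these conditions: about 18,000 compounds, about 900 of them at 50% or above in at least one test.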

Results are given as percent effect.
The record does not define 0% and 100%; most values in the screen are far below 50% and negative numbers occur (in some assays of this library far below -100).
The entries come from a sample that favours strong results.
A dash means the value is not listed here; it may have been measured.

Result for O=C1CCC(C(=O)Nc2ccc3c(c2)CCC3)=NN1 was Mtb glucose medium: -2.09%.
Result for CC(=O)Cn1cc(S(=O)(=O)N(C)C)ccc1=O was Mtb glucose medium: 4.608%.
Result for Cc1cnc2c(S(=O)(=O)N(C)C)cccc2c1 was Mtb cholesterol medium: 6.842%.
Result for CC1NCCn2c(Cl)ccc21 (configuration not stated) was Mtb cholesterol medium: -34.31%.
Result for CC(=O)c1cccc(NC(=O)c2cn(C)nc2C)c1 was Mtb glucose medium: 42.16%.
Result for O=C(CNC1=NCCN1)Nc1cccc(F)c1 was Mtb glucose medium: 28.47%.
Result for NC(=O)CCc1ccc(Cl)s1 was Mtb cholesterol medium: 61.8%.
Result for Cc1ccc(CCC(=O)N(C)C)cc1 was Mtb cholesterol medium: -1.565%.
Result for Cn1nc(C(F)(F)F)c(Cl)c1C(=O)N[C@@H]1CCNC1 was Mtb glucose medium: 52.01%.
Result for COc1ccc(NC(=O)NC(C)(C)C(C)(C)O)cc1 was Mtb glucose medium: 59.08%.
Result for O=C(NC1CCCN(C2CCCC2)C1)c1cnc[nH]1 (configuration not stated) was Mtb glucose medium: -2.436%.
Result for Cc1nn(-c2ccc(F)cc2)c(Cl)c1C(=O)N(C)C was Mtb glucose medium: 26.73%.
Result for COc1cccc(NC(=O)C(C)S(C)(=O)=O)c1 (configuration not stated) was Mtb glucose medium: 4.333%.
Result for O=C(CSCc1ccccn1)N1CCCOCC1 was Mtb glucose medium: 7.703%.
Result for CCN1CCN(CC(=O)Nc2ccc(OC)cc2)CC1 was Mtb glucose medium: 14.97%.
Result for CCc1noc(CS(=O)(=O)C(C)C(=O)NC2CC2)n1 (configuration not stated) was Mtb glucose medium: 11.32%.
Result for O=C(NCC1CCS(=O)(=O)CC1)c1cc2sccc2[nH]1 was Mtb glucose medium: 15.26%.
Result for CN1CCC2(CCNCC2)C1=O was Mtb glucose medium: 11.79%.
Result for CC1Oc2ccccc2C(=O)N(C)C1=O (configuration not stated) was Mtb glucose medium: 7.201%.
Result for CCC(N)(CC)CNS(=O)(=O)c1cccnc1 was Mtb cholesterol medium: -2.214%.

2 of the entries, repeated:

compound,Mtb glucose medium,Mtb cholesterol medium
CC(=O)Cn1cc(S(=O)(=O)N(C)C)ccc1=O,4.608%,-
Cc1nn(-c2ccc(F)cc2)c(Cl)c1C(=O)N(C)C,26.73%,-

The values are deposited in ChEMBL (CHEMBL3988442, “University of Dundee, Small-Polar-MMV Screening Library” (2021)).